# Measurements taken from PubChem BioAssay AID1619 (SRMLSC, 2009).
# Sequences of proteins named here, by UniProt entry; tags and fusion partners are left off. A change or cut given only in a name is not applied to a line headed by its entry.
# UniProt Q8IL11: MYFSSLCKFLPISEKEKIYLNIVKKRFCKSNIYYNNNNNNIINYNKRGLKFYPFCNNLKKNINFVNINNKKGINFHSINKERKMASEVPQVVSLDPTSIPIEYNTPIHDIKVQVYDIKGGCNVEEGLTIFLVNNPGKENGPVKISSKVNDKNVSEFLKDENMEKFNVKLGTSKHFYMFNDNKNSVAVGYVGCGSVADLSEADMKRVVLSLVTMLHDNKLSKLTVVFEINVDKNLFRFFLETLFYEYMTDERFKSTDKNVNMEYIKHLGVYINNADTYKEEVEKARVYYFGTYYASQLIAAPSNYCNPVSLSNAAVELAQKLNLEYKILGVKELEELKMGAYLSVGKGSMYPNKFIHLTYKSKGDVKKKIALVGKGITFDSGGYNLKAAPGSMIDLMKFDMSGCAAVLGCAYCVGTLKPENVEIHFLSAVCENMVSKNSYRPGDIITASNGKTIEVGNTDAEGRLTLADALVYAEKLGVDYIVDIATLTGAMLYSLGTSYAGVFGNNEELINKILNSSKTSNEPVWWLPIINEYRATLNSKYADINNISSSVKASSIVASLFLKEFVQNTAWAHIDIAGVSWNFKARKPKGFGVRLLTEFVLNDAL
# Values joined by “and” are separate entries in the source; they are usually repeats but may differ in a detail not shown here. Equal entries are not always repeated. The list shows a part of the results. Potency and affinity values are given separately. Active and inactive are the calls of the source.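 How the source made its calls: active means compound inhibiting the enzyme by more than half at any dose during confirmatory dose-response retesting; inconclusive means strong single-dose inhibitors picked by rank but not retested; inactive means the rest.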
# Target: Leucine aminopeptidase (Plasmodium falciparum (isolate 3D7)) (UniProt Q8IL11)
# Assay: P. falciparum M17LAP inhibitors, primary screen, biochemical, fluorogenic H-Leu-NHMec substrate, 1536-well (AID 1619);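 further: plate controls were full reaction with DMSO carrier for no effect and no enzyme background for full effect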
# Conditions: recombinant M17LAP, H-Leu-NHMec fluorogenic kinetic assay; at 30 µM; stronger effect = higher value
row,SMILES,inhibition
1,Cc1ccc(NP(=O)(Oc2ccccc2)Oc2ccccc2)nc1,inactive: 2.21%
2,CCc1nc2c(n1)c1c(non1O)c1c2no[n+]1[O-],inactive: -58.3%
3,O=[N+]([O-])c1cc([N+](=O)[O-])c(CCNc2ccccc2)c([N+](=O)[O-])c1,inactive: -5.8%
4,O=[N+]([O-])c1cccc2n[nH]nc12,inactive: 11.7%
5,CC(=O)N1C2C3N(C(C)=O)C1C1N(C(C)=O)C(C(N1C(C)=O)N3C(C)=O)N2C(C)=O,inactive: -5.04%
6,COc1ccc(C2=NCC(CBr)S2)cc1 (centres undefined),inactive: 11.1%
7,CC1CCN(C(=O)Oc2c(Cl)cc(Cl)c3cccnc23)CC1,inactive: 4.36%
8,CC(C)=N/N=C(\N)N[N+](=O)[O-],inactive: -6.62%
9,CN(C)C(=O)OCCc1n(C)cc[n+]1C,inactive: -1.46%
10,CCN(/C(=N/P(=O)(N1CCOCC1)N1CCOCC1)N1CCOCC1)c1ccc(OC)cc1,inactive: 1.7%
11,Nc1ccc([As](=O)(O)c2ccc(N)cc2)cc1,inactive: 8.33%
12,C[N+]1=C2C=CC=CC=C2SC12C([N+](=O)[O-])=CC([N+](=O)[O-])=C[C-]2[N+](=O)[O-] (centres undefined),inactive: 18.9%
13,O=C(Nc1cc([As](=O)(O)O)ccc1O)c1ccccc1,inactive: -2.18%
14,O=C(O)CNc1ccc([As](=O)(O)O)cc1,inactive: 4.36%
15,O=[N+]([O-])c1cccc(NC2=NCC(CBr)S2)c1 (centres undefined),inactive: 0.14%
16,O=[N+]([O-])c1ncn(CCn2ncnc2[N+](=O)[O-])n1,inactive: 14.2%
17,CC(C)(C)C(=O)NC(Sc1ccncn1)C(Cl)(Cl)Cl (centres undefined),inactive: 2.33%
18,CCOP(=O)(Nc1ccccc1)OCC,inactive: 7.17% and inactive: 6.28%
19,Cc1cc(SC(NC(=O)c2ccc(F)cc2)C(Cl)(Cl)Cl)ncn1 (centres undefined),inactive: 10.6%
20,Cc1ccc(NP(=O)(Oc2ccccc2F)Oc2ccccc2F)nc1,inactive: -7.51%
21,O=P(Nc1nc2ccc(Cl)cc2s1)(c1ccccc1)c1ccccc1,inactive: -0.39%
22,O=C(O)c1ccccc1[As](=O)(O)O,inactive: -0.07%

row,SMILES,inhibition
1,CC(=O)Nc1ccc([As](=O)(O)O)cc1,inactive: -2.86%
2,Nc1cccc2ccc([As](=O)(O)O)cc12,inactive: -8.36%
3,CCN(N=Nc1nonc1N)c1nonc1N,inactive: 20.2%
4,Clc1ccc(Cl)c(NC2=NCC(CBr)S2)c1 (centres undefined),inactive: 8.16%
5,CN1CCCC(OC(=O)C(c2ccccc2)c2ccccc2)C1 (centres undefined),inactive: 7.64%
6,Cc1ccc(OP(=O)(Nc2nccs2)Oc2ccc(C)cc2)cc1,inactive: -9.36%
7,Cc1ccc(N/C(=N/P(=O)(N2CCOCC2)N2CCOCC2)N2CCOCC2)cc1,inactive: -1.26%
8,NC(=O)c1cc([N+](=O)[O-])cc([N+](=O)[O-])c1N,inactive: 6.44%
9,Oc1ccccc1CNc1ccccn1,inactive: 9.61%
10,Cc1c2non([O-])c-2c(C)[n+](=O)[n+]1[O-],inactive: 11.8%
11,O=C(NC(Sc1ccncn1)C(Cl)(Cl)Cl)c1ccccc1 (centres undefined),inactive: 9.7%
12,CC(C)CC(=O)NC(Sc1ccc(Cl)cc1)C(Cl)(Cl)Cl (centres undefined),inactive: -9.13%
13,CC(C)(C)C(=O)NC(Sc1ccccc1)C(Cl)(Cl)Cl (centres undefined),inactive: 3.86%
14,O=P1(Nc2nc3ccc(Cl)cc3s2)COc2ccccc2O1 (centres undefined),inactive: -6.18%
15,CCOc1ccc(C2=NCC(CBr)S2)cc1 (centres undefined),inactive: 16.5%
16,CC(=O)Nc1ccc([As](=O)(O)O)c(O)c1,inactive: 8.18%
17,CC(=O)Nc1ccc(Oc2c([N+](=O)[O-])cc([N+](=O)[O-])cc2[N+](=O)[O-])cc1,inactive: 12.4%
18,C[C@@H]1C=CCP(=O)(Oc2ccccc2)O1 (some centres undefined),inactive: 8.81%
19,C[C@H]1OP(=O)(Oc2ccccc2)C[C@@H]2O[C@@H]21 (some centres undefined),inactive: -7.35%
20,c1ccc(-c2nn[nH]n2)c(-c2nn[nH]n2)c1,inactive: 16.8%
21,CCOC(=O)NC(Sc1ccccc1)C(Cl)(Cl)Cl (centres undefined),inactive: 5.43%
22,Cc1ccc(NP(=O)(Oc2cccc(C)c2)Oc2cccc(C)c2)nc1,inactive: 19.1%

row,SMILES,inhibition
1,CCNC(=S)/N=C(\N)N[N+](=O)[O-],inactive: -0.65%
2,O=C(NC1CCS(=O)(=O)C1)NP(=S)(Oc1ccccc1)Oc1ccccc1 (centres undefined),inactive: -0.8%
3,Cc1ccccc1OP(=O)(Nc1ccccn1)Oc1ccccc1C,inactive: -1.02%
4,CN(C)C(=O)Oc1noc2ccccc12,inactive: 13.6%
5,O=c1c2cc([N+](=O)[O-])ccc2[nH]c2c([N+](=O)[O-])cc([N+](=O)[O-])cc12,inactive: 42%
6,CCC(=O)N1C2C3N(C(=O)CC)C1C1N(C(=O)CC)C(C(N1C(=O)CC)N3C(=O)CC)N2C(=O)CC,inactive: 19.4%
7,COC(=O)c1cc2c(s1)N=C(c1ccccc1)N(C)P2(=O)N1CCOCC1 (centres undefined),inactive: -4.64%
8,Cc1ccc(OP(=O)(Nc2ccccn2)Oc2ccc(C)cc2)cc1,inactive: 3.94%
9,CC(=O)NC(SC(=S)N(CC(C)C)CC(C)C)C(Cl)(Cl)Cl (centres undefined),inactive: 3.22%
10,O=P(Nc1nc2ccccc2s1)(c1ccccc1)c1ccccc1,inactive: -2.02%
11,C[C@H]1OP(=O)(Oc2ccccc2)[C@H](O)[C@H](O)[C@H]1N=[N+]=[N-] (some centres undefined),inactive: -3.28%
12,O=P(Nc1ccccn1)(c1ccc(Br)cc1)c1ccc(Br)cc1,inactive: -3.04%
13,O=C(OC1CN2CCC1CC2)c1cccc(Cl)c1 (centres undefined),inactive: -5.93%
14,Nc1ccc([As](=O)(O)c2ccc([N+](=O)[O-])cc2)cc1,inactive: -3.85%
15,C(Cc1nn[nH]n1)Cc1nn[nH]n1,inactive: 14.7%
16,O=[As](O)(c1ccccc1)c1ccc(O)cc1,inactive: 20.7%
17,O=[N+]([O-])c1ncn(CCn2cnc([N+](=O)[O-])n2)n1,inactive: 6.4%
18,CC(=O)NC(SC(=S)N(C)C)C(Cl)(Cl)Cl (centres undefined),inactive: -9.86%
19,c1nnnn1CCn1cnnn1,inactive: -8.04%
20,CC(C)C(=O)NC(Sc1ccccc1)C(Cl)(Cl)Cl (centres undefined),inactive: -6.93%
